Measurements: PMC4937376
For part of these data: The exact form of at least one protein or probe is not confirmed. For part of these data: Where cells or extracts were used, other partners may take part.

Experiments:
[1] = molecular target: 6His-CpsR (Streptococcus pneumoniae D39) (UniProt A0A0H2ZMA3); assay: EMSA; details: dose dependent, shift above 1.0 ug CpsR, competed by 400-fold unlabeled cpsp, poly(dI-dC); EMSA: 20 ul, LightShift kit buffer (composition not given) with 50 ng/ul poly(dI-dC), 20 min room temperature, 6% gel; recombinant protein; residues 1-247; protein details: 6His; label: 5'-biotin
[2] = molecular target: CcpA (Streptococcus pneumoniae D39) (UniProt A0A0H2ZQ65); assay: pull-down (DNA affinity, MS); details: crude D39 extract, candidate, direct binding not confirmed; protein in an extract; label: 5'-biotin
[3] = molecular target: SPD_0379 (MarR family regulator) (Streptococcus pneumoniae D39) (UniProt A0A0H2ZNZ9); assay: pull-down (DNA affinity, MS); details: crude D39 extract, candidate, direct binding not confirmed; protein in an extract; label: 5'-biotin
[4] = molecular target: DNA gyrase subunit A (Streptococcus pneumoniae D39) (UniProt Q8DPM2); assay: pull-down (DNA affinity, MS); details: crude D39 extract, candidate, direct binding not confirmed; protein in an extract; label: 5'-biotin
[5] = molecular target: CpsR (native) (Streptococcus pneumoniae D39) (UniProt A0A0H2ZMA3); assay: pull-down (DNA affinity, MS); details: crude D39 extract, eluted 0.3-0.5 M NaCl; protein in an extract; residues 1-247; label: 5'-biotin
[6] = molecular target: DNA binding protein HU (Streptococcus pneumoniae D39) (UniProt A0A0H2ZMW4); assay: pull-down (DNA affinity, MS); details: crude D39 extract, candidate, direct binding not confirmed; protein in an extract; label: 5'-biotin

Measured: binding result

TACACATCTGCTTCTAAAATATTGTTAGAAAACGATTTGACTGTCCTGATCAATTTGTCATGTTCTTATTTCATTTTACTATATTTTTGGTTCGCGGGAAGTCTACTAAGATACTTAAAGATGCAGATAGTGAAAAAAGGTGTAGACATTACCGTAAAAAAGTGATATAATCGTAAGATGTTCAATGTATAGGTGTTAATCATGAGTAGACGTTTTAA (double strand) [cpsp 218-bp probe]
binds: [1] | [2] | [3] | [4] | [5] | [6]
